Experimental data published in paper PMC3855555, “Mycobacterial MazG Safeguards Genetic Stability via Housecleaning of 5-OH-dCTP” (PLoS Pathogens, 2013).

Legend:
Assay in all cases: purified protein
Settings in all cases: pH 7.5; 37.0 °C
[1] = system: Nc1ccn([C@H]2C[C@H](O)[C@@H](COP(=O)(O)OP(=O)(O)OP(=O)(O)O)O2)c(=O)n1
[2] = system: Nc1nc(=O)n([C@H]2C[C@H](O)[C@@H](COP(=O)(O)OP(=O)(O)OP(=O)(O)O)O2)cc1O
[3] = system: Nc1nc(O)nc2c1ncn2[C@H]1C[C@H](O)[C@@H](COP(=O)(O)OP(=O)(O)OP(=O)(O)O)O1
[4] = system: Nc1ncnc2c1ncn2[C@H]1C[C@H](O)[C@@H](COP(=O)(O)OP(=O)(O)OP(=O)(O)O)O1
[5] = system: O=Cc1cn([C@H]2C[C@H](O)[C@@H](COP(=O)(O)OP(=O)(O)OP(=O)(O)O)O2)c(=O)[nH]c1=O

Work on “Mtb MazG (Mycobacterium tuberculosis H37Rv)” yielded a Km [1] of 51 ± 14 µM, a kcat/Km [1] of 1000 M⁻¹ s⁻¹ and a Km [2] of 1.9 ± 0.3 µM. It also gave a kcat/Km [2] of 11300 M⁻¹ s⁻¹, a Km [3] of 2.4 ± 0.7 µM and a kcat/Km [3] of 13200 M⁻¹ s⁻¹. It also gave a Km [4] of 64 ± 23 µM, a kcat/Km [4] of 1500 M⁻¹ s⁻¹ and a Km [5] of 497 ± 140 µM. It also gave a kcat/Km [5] of 1830 M⁻¹ s⁻¹.
